Test results as given in PMC10729856, “The bacterial effector SidN/Lpg1083 promotes cell death by targeting Lamin-B2” (2023).

Biological target: SidN T55A/Y57A/R80A, recombinant (Legionella pneumophila)
Test: SEC

Work on “SidN T55A/Y57A/R80A, recombinant (natural protein)” yielded a stoichiometry N of 2.
